The record followed here is publication PMC5662717 (Scientific Reports, 2017).

HELM strings list residues between dots; [ac] is acetyl, [am] amide, other brackets name non-standard units.

A short description of the series: general procedure: Fmoc solid-phase peptide synthesis; Wang resin (aapptech), ~0.5 mmol/g; DIC/HOBt. Conditions: whole synthesis, 220 nm.
With “PEPTIDE1{C.D.R.V.C.Y.H.I.P.F}$PEPTIDE1,PEPTIDE1,1:R3-5:R3$$$V2.0”, the “final HPLC purity” value came to 98%.

For the substance “PEPTIDE1{C.D.R.V.Y.H.I.P.F.C}$PEPTIDE1,PEPTIDE1,1:R3-10:R3$$$V2.0”, the “final HPLC purity” value is listed as 98%.

Turning to “PEPTIDE1{C.D.R.V.Y.I.H.P.F.C}$PEPTIDE1,PEPTIDE1,1:R3-10:R3$$$V2.0”, the “final HPLC purity” value is listed as 98%.

On to “PEPTIDE1{C.D.R.V.Y.P.F.C}$PEPTIDE1,PEPTIDE1,1:R3-8:R3$$$V2.0”, for which the “final HPLC purity” value is given as 97%.

As for “PEPTIDE1{C.R.Y.H.I.P.F.C}$PEPTIDE1,PEPTIDE1,1:R3-8:R3$$$V2.0”, the “final HPLC purity” value worked out at 98%.

For the substance “PEPTIDE1{C.R.Y.P.F.C}$PEPTIDE1,PEPTIDE1,1:R3-6:R3$$$V2.0”, the “final HPLC purity” value amounted to 99%.

Regarding “PEPTIDE1{C.Y.H.P.F.C}$PEPTIDE1,PEPTIDE1,1:R3-6:R3$$$V2.0”, the “final HPLC purity” value came out at 97%.
